Compound potency records, mixed from different reports. Data source: NIAID ChemDB in PubChem.

Shared fields: growth or infection tests; species: Human herpesvirus 6; cell line: HSB-2; endpoint: EC50

ECn is the concentration giving n% inhibition of infection, replication or growth. An empty or dashed field is not shown. Lines come from different laboratories, so protocols vary.

| structure | strain | read by | result |
|---|---|---|---|
| N#CC1C(c2ccc(Cl)cc2)Nc2ccccc2S1(=O)=O | GS (TYPE 6A) | cytopathic effect | 0.4 µg/mL |
| CCCCCOc1nc(N)nc2c1ncn2/C=C1/C[C@@H]1CO | TYPE 6A | flow cytometry | 2.3 µM |
| N#CC1=C(c2ccccc2)Nc2sccc2S1(=O)=O | GS (TYPE 6A) | cytopathic effect | >20 µg/mL |
| CCCCCSc1nc(N)nc2c1ncn2/C=C1/C[C@@H]1CO | TYPE 6B | flow cytometry | 3.4 µM |
| CC(C)Nc1nc2cc(Cl)c(Cl)cc2n1[C@H]1O[C@H](C)[C@H](O)[C@@H]1O | 6a | hybridisation | 62 µM |
| Nc1nc2c(ncn2COCCO)c(=O)[nH]1 | GS | antigen | 59 µM |
| O[C@@H]1[C@H](O)CO[C@H]1n1c(NC2CC2)nc2cc(Cl)c(Cl)cc21 | 6a | hybridisation | >100 µM |
| Cn1cc(C(=O)NCc2ccc(Cl)cc2)c(=O)c2cc(CN3CCOCC3)ccc21 | - | cytopathic effect | >100 µM |
| Nc1nc2c(ncn2CC(CO)CCO)c(=O)[nH]1 | GS | antigen | 14 µM |
| C#CCNc1nc(N)nc2c1ncn2/C=C1/C[C@@H]1CO | TYPE 6B | flow cytometry | 5.4 µM |
| OC[C@H]1O[C@@H](n2c(Br)nc3cc(Cl)c(Cl)cc32)[C@H](O)[C@@H]1O | GS (subtype 6A) | flow cytometry | 125 µM |
| Nc1nc2c(ncn2C[C@]2(CO)C[C@H]2CO)c(=O)[nH]1 | GS (subtype 6A) | cytopathic effect | 2.64 µg/mL |
| O=C(O)P(=O)(O)O | GS (subtype 6A) | flow cytometry | 13.7 µM |
| Nc1nc2c(ncn2/C=C2/CC2(CO)CO)c(=O)[nH]1 | TYPE 6B | flow cytometry | 0.6 µM |
| Nc1nc2c(ncn2COC(CO)CO)c(=O)[nH]1 | GS (subtype 6A) | cytopathic effect | 10 µg/mL |
| CO[C@H]1[C@@H](OC)C[C@H](C)[C@@H](OC)C2=CC(=O)C=C(NC(=O)/C(C)=C/C=C/[C@H](OC)[C@@H](OC(N)=O)/C(C)=C/[C@@H]1C)C2=O | TYPE A (GS) | hybridisation | 0.0322 µM |
| CCCSc1nc(N)nc2c1ncn2/C=C1/C[C@@H]1CO | TYPE 6A | flow cytometry | 9.6 µM |
| Nc1nc2c(ncn2[C@@H]2C[C@H](CO)[C@H]2CO)c(=O)[nH]1 | GS (subtype 6A) | - | 1.96 µg/mL |
| Cn1cc(C(=O)NCc2ccc(Cl)cc2)c(=O)c2cc(CN3CCOCC3)ccc21 | GS (TYPE A) | antigen / flow cytometry | >20.1 µM |
| Cc1cn([C@H]2C[C@H](N=[N+]=[N-])[C@@H](CO)O2)c(=O)[nH]c1=O | GS | antigen | >200 µM |
| OC[C@@H]1O[C@@H](n2c(Br)nc3cc(Cl)c(Cl)cc32)[C@H](O)[C@H]1O | 6a | hybridisation | 2.8 µM |
| Cc1c(S(=O)(=O)c2ccc(Cl)cc2)c(NC(=O)C(F)(F)F)n(Cc2ccc(Cl)cc2)c1C | GS (TYPE 6A) | hybridisation | ≥10 µg/mL |
| C[C@H]1O[C@@H](n2c(NC3CC3)nc3cc(Cl)c(Cl)cc32)[C@H](O)[C@@H]1O | 6a | hybridisation | >100 µM |
| Nc1nc2c(ncn2CCC(CO)CO)c(=O)[nH]1 | GS (subtype 6A) | - | 85 µg/mL |

Repeating the final 4 entries:

structure | strain | read by | result
OC[C@@H]1O[C@@H](n2c(Br)nc3cc(Cl)c(Cl)cc32)[C@H](O)[C@H]1O | 6a | hybridisation | 2.8 µM
Cc1c(S(=O)(=O)c2ccc(Cl)cc2)c(NC(=O)C(F)(F)F)n(Cc2ccc(Cl)cc2)c1C | GS (TYPE 6A) | hybridisation | ≥10 µg/mL
C[C@H]1O[C@@H](n2c(NC3CC3)nc3cc(Cl)c(Cl)cc32)[C@H](O)[C@@H]1O | 6a | hybridisation | >100 µM
Nc1nc2c(ncn2CCC(CO)CO)c(=O)[nH]1 | GS (subtype 6A) | - | 85 µg/mL